PubChem BioAssay AID1259414 | Drosophila RNAi Screening Center, 2018

Purpose: 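Host factors increasing or decreasing Wolbachia levels in cultured fly cells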 (primary screen)
Cells: Drosophila JW18 cells infected with Wolbachia
Knock-down reagent: long dsRNA against Drosophila genes, 0.25 µg dsRNA per well of a 384-well plate
Duration: 5 days
Challenge: cells persistently infected with Wolbachia before knock-down; no added drug
Measurement: 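Automated imaging of bacterial rRNA staining divided by host cell count, reported as plate-normalised robust z-score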
Scale: Wolbachia per cell robust z: higher = more Wolbachia per host cell than the plate typical
Hit rule: 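Active if absolute robust z reaches 1.5 in two or more of three replicates, leaving out multi- or no-target dsRNAs, genes unexpressed in JW18 and A1 wells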
In all, the deposit lists about 24,000 reagents; below is an unselected part of those with a known target gene and a result. In the full data, about 1,210 (5%) are marked active. 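Inactive calls also include excluded dsRNAs with several or no targets, genes unexpressed in JW18, and well A1, regardless of score.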 Entries without a mark were called inactive. No sequences are given here.

| target | PubChem SID | Wolbachia per cell robust z, rep 1 | Wolbachia per cell robust z, rep 2 | Wolbachia per cell robust z, rep 3 |
| --- | --- | --- | --- | --- |
| mRpL17 (mitochondrial ribosomal protein L17) | SID104188142 | 0.785 | 1.33 | -1.56 |
| CG3630 | SID104198291 | 1.07 | -0.637 | 1.92 |
| CG3630 | SID104207447 | -1.57 | 0.667 | -0.153 |
| CG15909 | SID104184769 | -0.77 | 1.02 | 0.106 |
| CG1236 | SID104191995 | -0.85 | 0.791 | -0.222 |
| CycB3 (Cyclin B3) | SID104196410 | -2.21 (active) | -0.46 | -1.6 |
| CG6569 | SID104195859 | 0.46 | 0.429 | 0.177 |
| CG11961 | SID104185891 | 0.292 | -0.923 | 0.443 |
| CG7460 | SID104190642 | 0.123 | -0.824 | -0.876 |
| CG7460 | SID104206471 | -0.932 | -0.305 | -0.927 |
| Gs1l (GS1-like) | SID104180546 | 0.49 | 0.21 | 1.52 |
| CG14006 | SID104182130 | -1.86 | -1.46 | 1.04 |
| CSN6 (COP9 signalosome subunit 6) | SID104196385 | -1.16 | -1.29 | 1.08 |
| CG17283 | SID104195011 | 0.673 | -4.1 | 0.362 |
| CG1603 | SID104186394 | 1.36 | -1.19 | -2.08 |
| CG1603 | SID104206526 | -1.26 | 0.776 | -0.81 |
| noc (no ocelli) | SID104203543 | 0.499 | -1.35 | -0.355 |
| lush | SID104191156 | -1.85 | -0.503 | -0.702 |
| Or69a (Odorant receptor 69a) | SID104191035 | -0.448 | 0.0134 | 0.738 |
| Or69a (Odorant receptor 69a) | SID104204511 | 0.244 | 0.06 | 0.0586 |
| cype (cyclope) | SID104182148 | 0.335 | 1.94 | -0.289 |
| mRpL1 (mitochondrial ribosomal protein L1) | SID104196043 | 0.799 | 1.29 | 0.231 |
| SP1173 | SID104191069 | 0.747 | -1.21 | 0.183 |
| CG8945 | SID104199921 | 0.376 | -2.5 | 0.83 |

Records listed so far whose gene name begins with M or m (2):
| target | PubChem SID | Wolbachia per cell robust z, rep 1 | Wolbachia per cell robust z, rep 2 | Wolbachia per cell robust z, rep 3 |
| --- | --- | --- | --- | --- |
| mRpL17 (mitochondrial ribosomal protein L17) | SID104188142 | 0.785 | 1.33 | -1.56 |
| mRpL1 (mitochondrial ribosomal protein L1) | SID104196043 | 0.799 | 1.29 | 0.231 |

The list goes on.
| target | PubChem SID | Wolbachia per cell robust z, rep 1 | Wolbachia per cell robust z, rep 2 | Wolbachia per cell robust z, rep 3 |
| --- | --- | --- | --- | --- |
| Cyp12a5 (Cytochrome P450 12a5) | SID104196413 | 0.0444 | -0.407 | -1.31 |
| Cyp12a5 (Cytochrome P450 12a5) | SID104203420 | 1.48 | -7.45 | -0.345 |
| CG14811 | SID104197754 | 0.885 | -1.87 | 0.542 |
| Baldspot | SID104189463 | 0.15 | -0.601 | -0.286 |
| Cth (Cystathionine gamma-lyase) | SID104187214 | -1.09 | 0.373 | -0.146 |
| CG6770 | SID104182784 | -0.696 | -0.0234 | -3.47 |
| CG6770 | SID104204958 | 0.835 | 1.19 | 0.151 |
| CG14676 | SID104192054 | 0.0607 | -1.52 | -0.94 |
| CG14676 | SID104219033 | 0.752 | 0.0224 | 0.928 |
| CG34224 | SID104216455 | -1.87 | -0.735 | -3.16 |
| CG31921 | SID104179805 | -0.632 | -1.06 | -0.191 |
| Chd64 | SID104188441 | -2.34 | 0.276 | -1.44 |
| Chd64 | SID104207367 | -0.217 | 0.253 | 0.961 |
| Cpr92A (Cuticular protein 92A) | SID104195792 | -0.756 | -0.497 | 0.338 |
| Cpr92A (Cuticular protein 92A) | SID104203886 | -3.18 | -1.51 | -1.42 |
| Gr22b (Gustatory receptor 22b) | SID104200703 | 1.79 | -1.32 | -1.43 |
| CG3085 | SID104184127 | -5.79 | 0.21 | 0.373 |
| CG14455 | SID104191504 | 0.731 | -0.865 | 0.702 |
| CG14455 | SID104208536 | -0.19 | -0.468 | 0.233 |
| BORCS6 (BLOC-1 related complex subunit 6) | SID104188306 | 1.1 | 0.285 | 0.794 |
| BORCS6 (BLOC-1 related complex subunit 6) | SID104204279 | -0.579 | -0.725 | -0.0251 |
| Or98b (Odorant receptor 98b) | SID104196567 | 0.158 | -0.798 | -0.269 |
| Or98b (Odorant receptor 98b) | SID104201420 | -2.25 | 0.62 | -1.2 |
| mEFTu2 (mitochondrial translation elongation factor Tu 2) | SID104185955 | -0.421 | -4.22 | 0.145 |
| ms(3)76Cc (male sterile (3) 76Cc) | SID104190863 | -0.325 | -4.93 | 0.209 |
| ms(3)76Cc (male sterile (3) 76Cc) | SID104201324 | -1.3 | -1.19 | 0.126 |
| CG34263 | SID104216433 | 1.11 | 0.716 | 0.279 |
| swa (swallow) | SID104198634 | 0.897 | 0.353 | 0.225 |
| swa (swallow) | SID104204100 | -0.0814 | -0.808 | -0.643 |
| bdl (borderless) | SID104180063 | -1.02 | -0.64 | -0.679 |
| Mcr (Macroglobulin complement-related) | SID104183158 | -0.723 | -0.817 | 0.834 |
| CG1360 | SID104186198 | 1.24 | -0.0111 | 0.413 |
| CG1360 | SID104207950 | -0.727 | -0.256 | -0.0737 |
| Gdi (GDP dissociation inhibitor) | SID104183122 | -0.624 | -0.0617 | 0.134 |
| Gdi (GDP dissociation inhibitor) | SID104207522 | 0.156 | -2.29 | -0.79 |
| svr (silver) | SID104197085 | -0.128 | 1.02 | 0.848 |
| svr (silver) | SID104198633 | 1.38 | -0.0523 | 1.65 |
| svr (silver) | SID104205941 | -0.243 | 0.107 | -0.731 |
| svr (silver) | SID104216530 | 1.31 | 0.135 | -0.605 |
| CG32488 | SID104188341 | -1.82 | 0.207 | 0.606 |
| CG32488 | SID104201254 | -1.24 | 0.351 | -0.262 |
| RpLP0 (Ribosomal protein LP0) | SID104191670 | 0.788 | 1.14 | 0.471 |
| RpLP0 (Ribosomal protein LP0) | SID104201671 | 1.85 | 0.734 | 1.29 |
| CG8677 | SID104182899 | -5.94 | 0.835 | -0.377 |
| CG8677 | SID104202794 | 0.369 | 0.831 | 2.16 |
